molecular target: recombinant HCV NS5B (HCV RNA-dependent RNA polymerase) (Hepatitis C virus genotype 1b, UniProt P26663); assay: In vitro HCV RdRp Flashplate scintillation proximity assay (STREP-FLASH ASSAY); format: biochemical; conditions: not given

Chains of the proteins cited; added tags and fusions are not shown. Residues count along the entry.
UniProt P26663, 2420-3010 limits assumed: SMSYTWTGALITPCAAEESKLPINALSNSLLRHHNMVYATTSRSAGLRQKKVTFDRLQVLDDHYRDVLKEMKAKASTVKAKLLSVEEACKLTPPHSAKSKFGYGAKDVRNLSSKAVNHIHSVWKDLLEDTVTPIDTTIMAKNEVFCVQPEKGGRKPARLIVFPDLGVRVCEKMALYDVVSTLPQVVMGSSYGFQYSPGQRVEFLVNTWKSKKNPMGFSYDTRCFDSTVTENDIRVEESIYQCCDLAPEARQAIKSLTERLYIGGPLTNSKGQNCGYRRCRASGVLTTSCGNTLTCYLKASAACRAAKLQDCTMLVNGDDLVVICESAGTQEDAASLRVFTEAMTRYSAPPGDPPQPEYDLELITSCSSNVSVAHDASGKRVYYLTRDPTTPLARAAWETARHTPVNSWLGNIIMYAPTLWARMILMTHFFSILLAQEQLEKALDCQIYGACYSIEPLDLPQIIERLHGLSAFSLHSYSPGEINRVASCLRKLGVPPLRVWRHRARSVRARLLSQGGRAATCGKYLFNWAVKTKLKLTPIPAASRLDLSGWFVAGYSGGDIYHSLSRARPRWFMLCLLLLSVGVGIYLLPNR

SMILES | IC50
CC1CC=C(C(=O)N(c2cc(-c3ccccc3)sc2C(=O)O)C(C)C)CC1 (stereo not shown) | < 5 µM

same assay, conditions: read-out: IC50 (polymerase activity); HCV polymerase activity, list of compounds of Example 27

SMILES | IC50
CC(C)N(C(=O)c1ccc(Cl)cc1Cl)c1cc(Br)sc1C(=O)O | < 5 µM
CCCCCC(=O)N(CC)c1cc(-c2ccccc2)sc1C(=O)O | < 5 µM
CN(C(=O)c1ccccc1)c1cc(-c2ccccc2)sc1C(=O)O | > 20 µM
CC(CO)N(C(=O)c1ccc(Cl)cc1Cl)c1cc(-c2ccccc2)sc1C(=O)O (stereo not shown) | < 5 µM
CC1CCC(C(=O)N(CC2CCN(C(=O)OCc3ccccc3)CC2)c2cc(-c3ccccc3)sc2C(=O)O)CC1 (stereo not shown) | < 5 µM
CC(C(O[Si](C)(C)C(C)(C)C)c1ccccc1)N(C(=O)c1ccc(Cl)cc1Cl)c1cc(-c2ccccc2)sc1C(=O)O (stereo not shown) | 5 to 20 µM

same assay, conditions: related polymerase activity (Example 27 list)

SMILES | IC50
Cc1cc(S(=O)(=O)Nc2cc(-c3cc(C(F)(F)F)cc(C(F)(F)F)c3)sc2C(=O)O)c(C)cc1Cl | > 20 µM
Cc1cc(S(=O)(=O)Nc2c(C(=O)O)sc3c2CSc2ccc(Cl)cc2-3)c(C)cc1Cl | 5 to 20 µM
CC(=O)c1ccc(-c2cc(N(C)C(=O)c3ccc(C)cc3)c(C(=O)O)s2)s1 | < 5 µM
CN(C(=O)c1ccc(C(F)(F)F)cc1F)c1cc(-c2ccccc2)sc1C(=O)O | 5 to 20 µM
Cc1cc(S(=O)(=O)Nc2cc(-c3ccsc3)sc2C(=O)O)c(C)cc1Cl | < 5 µM
Cc1ccccc1S(=O)(=O)Nc1cc(-c2ccc(N=[N+]=[N-])cc2)sc1C(=O)O | < 5 µM
Cc1ccc(S(=O)(=O)Nc2cc(-c3cc4ccccc4o3)sc2C(=O)O)c(C)c1 | < 5 µM
CN(C(=O)c1c(F)cc(F)cc1F)c1cc(-c2ccccc2)sc1C(=O)O | 5 to 20 µM
CCOc1ccc(-c2cc(NS(=O)(=O)c3ccccc3C)c(C(=O)O)s2)cc1 | < 5 µM
Cc1ccc(S(=O)(=O)Nc2cc(-c3ccc(C(N)=O)cc3)sc2C(=O)O)c(C)c1 | 5 to 20 µM
CC(=O)c1ccc(-c2cc(NS(=O)(=O)c3c(C)cccc3C)c(C(=O)O)s2)s1 | < 5 µM
Cc1ccccc1S(=O)(=O)Nc1cc(-c2ccc(C#N)s2)sc1C(=O)O | < 5 µM
Cc1ccc2c(c1)C(=O)N=C2N(c1cc(-c2ccccc2)sc1C(=O)O)C(C)C | 5 to 20 µM
Cc1cc(S(=O)(=O)Nc2cc(C(C)(C)C)sc2C(=O)O)c(C)cc1Cl | 5 to 20 µM
Cc1ccc(-c2cc(N(C(=O)c3ccc(Cl)cc3Cl)C(C)C)c(C(=O)O)s2)s1 | < 5 µM
Cc1ccccc1S(=O)(=O)Nc1cc(C#Cc2ccccc2)sc1C(=O)O | < 5 µM
Cc1ccccc1S(=O)(=O)Nc1cc(-c2ccc(F)c(Cl)c2)sc1C(=O)O [Compound 91, 5-(3-CHLORO-4-FLUORO-PHENYL)-3-(TOLUENE-2-SULFONYLAMINO)-THIOPHENE-2-CARBOXYLIC ACID] | < 5 µM
CC(=O)c1ccc(-c2cc(NS(=O)(=O)c3ccc(C)cc3C)c(C(=O)O)s2)s1 | < 5 µM

From US6881741B2 (ViroChem Pharma Inc., priority 2001, dated 2005)
